Assay results published in ChEMBL document CHEMBL3045952, “Design, synthesis, and fungicidal activity of novel analogues of pyrrolnitrin” (J Agric Food Chem, 2009).
Converted amounts (≈) assume the structure as drawn.

Legend:
Mycosphaerella arachidis = assay: Fungicidal activity against Mycosphaerella arachidis assessed as mycelium growth inhibition by mycelium growth rate method
[1] = system: Botryosphaeria berengeriana; assay: Fungicidal activity against Botryosphaeria berengeriana assessed as mycelium growth inhibition by mycelium growth rate method
Fusarium graminearum = assay: Fungicidal activity against Fusarium graminearum assessed as mycelium growth inhibition by mycelium growth rate method
Alternaria solani = assay: Fungicidal activity against Alternaria solani assessed as mycelium growth inhibition by mycelium growth rate method
Fusarium oxysporum = assay: Fungicidal activity against Fusarium oxysporum assessed as mycelium growth inhibition by mycelium growth rate method

Structure (SMILES): O=[N+]([O-])c1cc(-c2cc(F)c([N+](=O)[O-])cc2[N+](=O)[O-])cs1
- EC50 (Mycosphaerella arachidis): 9.36 µg/mL (≈ 29.9 µM)
- EC50 [1]: 4.39 µg/mL (≈ 14 µM)
- EC50 (Fusarium graminearum): 18.5 µg/mL (≈ 59.1 µM)
- EC50 (Alternaria solani): 33.5 µg/mL (≈ 107 µM)
- EC50 (Fusarium oxysporum): 38.4 µg/mL (≈ 123 µM)

Structure (SMILES): O=[N+]([O-])c1cc([N+](=O)[O-])c(-c2ccsc2[N+](=O)[O-])cc1F
- EC50 (Mycosphaerella arachidis): 6.42 µg/mL (≈ 20.5 µM)
- EC50 [1]: 3.57 µg/mL (≈ 11.4 µM)
- EC50 (Fusarium graminearum): 8.33 µg/mL (≈ 26.6 µM)
- EC50 (Alternaria solani): 29.6 µg/mL (≈ 94.6 µM)
- EC50 (Fusarium oxysporum): 5.55 µg/mL (≈ 17.7 µM)
